Key:
[1] = biological target: the molecule itself; assay: AUC
[2] = biological target: the molecule itself; assay: SEC

B1: Mycobacterium tuberculosis UvrD1 (Rv0949), wild type (enzyme)
chain: not shown
B1 was tested, and the “stoichiometry N” value [1] was 4 and the “stoichiometry N” value [2] was 2.
